Anti-infective test results gathered from many reports (values: NIAID ChemDB through PubChem).

Common to all: toxicity to cultured cells; cell line: H9; endpoint: CC50

Blank or dashed fields: not listed here. CCn is the concentration with n% toxicity to the cells. Neighbouring rows are from separate reports.

SMILES	method	result
O=c1c(O)c(-c2ccc(O)cc2)oc2cc(O)cc(O)c12	-	50 µg/mL
Nc1nc2c(ncn2[C@H]2C=C[C@@H](CO)C2)c(=O)o1	-	>500 µg/mL
COc1c(C)c(O)c(C(=O)/C=C(\O)c2ccccc2)c(O)c1C=O	cell count	10.7 µg/mL
CC[C@H](C)[C@H](NC(=O)[C@H](C(C)C)[C@@H](O)[C@H](O)[C@H](CC1CCCCC1)NC(=O)[C@H](Cc1cnc[nH]1)NC(=O)COc1cccc2ccccc12)C(=O)NCc1ccccn1	-	>100 µM
Oc1cc(O)c2c(c1)O[C@H](c1cc(O)c(O)c(O)c1)[C@@H](O)[C@@H]2c1c(O)cc(O)c2c1O[C@H](c1cc(O)c(O)c(O)c1)[C@H](O)C2	-	18 µg/mL
O=c1[nH]cnc2c1ncn2[C@H]1CC[C@@H](CO)O1	-	1450 µM
COc1cc2c(cc1OC)[C@H](O)[C@H]1COC(=O)[C@@H]1[C@@H]2c1cc(OC)c(OC)c(OC)c1	-	7.53 µg/mL
Cc1cn([C@H]2C[C@H](N=[N+]=[N-])[C@@H](CO)O2)c(=O)[nH]c1=O	-	60.4 µM
COc1cc([N+](=O)[O-])c(OC)cc1N[C@@H]1c2cc3c(cc2[C@@H](c2cc(OC)c(O)c(OC)c2)[C@H]2C(=O)OC[C@@H]21)OCO3	-	1.76 µg/mL
COc1c2c(cc3c1-c1c(cc4c(c1OC)OCO4)C(OC(=O)c1ccccc1)[C@@](C)(O)[C@@H](C)C3)OCO2	-	25.3 µg/mL
O=C(O[C@@H]1Cc2c(O)cc(O)cc2O[C@@H]1c1ccc(O)c(O)c1)c1cc(O)c(O)c(O)c1	-	>10 µg/mL
COc1c(C)c(O)c2c(c1C)OC(c1ccccc1)CC2=O	cell count	1.77 µg/mL
CC(C)Nc1cccnc1N1CCN(C(=O)c2cc3cc(NS(C)(=O)=O)ccc3[nH]2)CC1	-	>100 µM
CC(C)(C)OC(=O)N[C@@H](Cc1ccccc1)[C@H](O)[C@H](O)[C@H](Cc1ccccc1)NC(=O)OC(C)(C)C	trypan blue	25 µM
COc1c(C)c(O)c2c(=O)cc(-c3ccccc3)oc2c1C	cell count	19.8 µg/mL
COc1ccc(N[C@@H]2c3cc4c(cc3[C@@H](c3cc(OC)c(O)c(OC)c3)[C@H]3C(=O)OC[C@@H]32)OCO4)c([N+](=O)[O-])c1	-	1.69 µg/mL
CC(C)[C@H](NC(=O)OCc1ccccn1)C(=O)N[C@@H](Cc1ccccc1)[C@@H](O)[C@H](O)[C@H](Cc1ccccc1)NC(=O)[C@@H](NC(=O)OCc1ccccn1)C(C)C	trypan blue	>100 µM
O=C(O[C@@H]1[C@@H](c2c(O)cc3c(c2O)C[C@@H](OC(=O)c2cc(O)c(O)c(O)c2)[C@@H](c2cc(O)c(O)c(O)c2)O3)c2c(O)cc(O)cc2O[C@@H]1c1cc(O)c(O)c(O)c1)c1cc(O)c(O)c(O)c1	-	30 µg/mL
COc1cc2c(cc1OC)[C@@H](Nc1ccc(C#N)cc1)[C@H]1COC(=O)[C@@H]1[C@@H]2c1cc(OC)c(O)c(OC)c1	-	0.141 µg/mL
Nc1nc2c(ncn2[C@@H]2C[C@H](CO)[C@@H](O)[C@H]2O)c(=O)o1	-	>500 µg/mL
C[C@H]1[C@H](O)[C@@H](C)/C=C/C=C/C=C/C=C/C=C/C=C/C=C/[C@H](O[C@@H]2O[C@H](C)[C@@H](O)[C@H](N)[C@@H]2O)C[C@@H]2O[C@](O)(C[C@@H](O)C[C@@H](O)CC[C@H](O)[C@@H](O)C[C@@H](O)CC(=O)O[C@H]1C)C[C@H](O)[C@H]2C(=O)O	-	>10 µg/mL
Nc1nc2c(ncn2[C@@H]2O[C@H](COP(=O)(O)O)[C@@H](O)[C@H]2O)c(=O)o1	-	>500 µg/mL
Cc1cn([C@H]2C[C@H](N=[N+]=[N-])[C@@H](CO)O2)c(=O)[nH]c1=O.O=C(O)P(=O)(O)O	-	>800 µM
CC1(C)Oc2ccc3ccc(=O)oc3c2[C@@H](OC(=O)C23CCC(C)(C(=O)O2)C3(C)C)[C@H]1OC(=O)C12CCC(C)(C(=O)O1)C2(C)C	-	35 µM
O=C(O[C@@H]1Cc2c(O)cc(O)cc2O[C@@H]1c1cc(O)c(=O)c2c(O)c(O)cc([C@H]3Oc4cc(O)cc(O)c4C[C@H]3OC(=O)c3cc(O)c(O)c(O)c3)c2c1)c1cc(O)c(O)c(O)c1	-	48 µg/mL
Cc1c(O)c(C=O)c2c(c1O)C(=O)C[C@@H](c1ccccc1)O2	cell count	2.15 µg/mL
Nc1nc2c(ncn2[C@H]2CC[C@@H](CO)O2)c(=O)o1	-	>500 µg/mL
CC(C)[C@H](NC(=O)NCc1ccccn1)C(=O)N[C@@H](Cc1ccccc1)C(O)[C@H](Cc1ccccc1)NC(=O)[C@@H](NC(=O)NCc1ccccn1)C(C)C	trypan blue	>100 µM
CC1CNC(=O)c2ccccc2SSc2ccccc2C(=O)N1	-	50 µg/mL
C[C@@H]1[C@H](O)[C@@H](C)/C=C/C=C/CC/C=C/C=C/C=C/C=C/C(O[C@H]2O[C@H](C)[C@@H](O)[C@H](N)[C@@H]2O)CC2O[C@](O)(CC(O)C(O)CCC(O)CC(O)CC(O)CC(=O)O[C@H]1C)CC(O)C2C(=O)O	-	>10 µg/mL
Cc1c(O)c(C)c2c(c1O)C(=O)C[C@@H](c1ccccc1)O2	cell count	20.8 µg/mL
Cc1cn([C@H]2C[C@H](N=[N+]=[N-])[C@@H](CO)O2)c(=O)[nH]c1=O	-	47 µM
CC(C)[C@H](NC(=O)N(C)Cc1ccccn1)C(=O)N[C@@H](Cc1ccccc1)[C@H](O)[C@H](O)[C@H](Cc1ccccc1)NC(=O)[C@@H](NC(=O)N(C)Cc1ccccn1)C(C)C	trypan blue	>100 µM
O=C(/C=C/c1ccc(O)cc1)OC[C@H]1O[C@@H](Oc2c(-c3ccc(O)cc3)oc3cc(O)cc(O)c3c2=O)[C@H](O)[C@@H](O)[C@@H]1O	-	80 µg/mL

Repeating the first 2 entries:

SMILES | method | result
O=c1c(O)c(-c2ccc(O)cc2)oc2cc(O)cc(O)c12 | - | 50 µg/mL
Nc1nc2c(ncn2[C@H]2C=C[C@@H](CO)C2)c(=O)o1 | - | >500 µg/mL